Measurements published in patent US8795659B2 (priority 2004, dated 2014).

Key:
Lewis Lung Carcinoma = test: Response of s.c. Lewis lung carcinoma in mice (Table 3)
[1] = Storage stability of lyophilized samples, assayed for purity; assay type: physicochemical; conditions: −23° C.

Structure (SMILES) | T-C (tumor growth delay to 750 mg) (Lewis Lung Carcinoma; 30 mg kg^-1/dose IP, Day 2 Q5 min × 7) [days] | T-C (tumor growth delay to 750 mg) (Lewis Lung Carcinoma; 200 mg kg^-1/dose IP, Day 2 Single dose) [days] | purity after storage ([1]; 0 months) [%] | purity after storage ([1]; 1 months) [%] | purity after storage ([1]; 3 months) [%]
NP(=O)(O)N(CCCl)CCCl | 6.1 | 4.9 | – | – | –
O=P(O)(NCCCl)NCCCl | – | – | 97 | 88 | 70
